Reference: publication PMC7954794, “Protein context shapes the specificity of SH3 domain-mediated interactions in vivo” (Nature Communications, 2021)
Some results come without the dose or concentration used.

B1: YNL020C (protein, UniProt P53974 1-638, looked up)
Actin-regulating kinase 1: MNQPQIGTYNVGTQLTVGSHQVEIIKYLTSGGFAQVYSALINPPDPHSNSSVACLKRVIVPDKPSLNTLRAEVDAMRLLKNNRYVVSYIDSHAAKAMLHNGSYEVFVLMEYCERGGLIDFMNTRLQNRLHEFEILQIMSQVTQGVAAMHALQPPLIHRDIKIENVLISANNEYKLCDFGSVCGIIRPPRNSQELSYVQQDILKNTTAQYRSPEMIDTFRGLPIDEKSDIWALGIFLYKLCYYTTPFEKGGDLAILSGKFEFPLYPNYSEQLKGLIRDILVQDPRHRPNVYQLLKRISIMQNVPCPINDIQVVQAPSSHLNLTELHQLSATQNILSLNSPTTMENTMPNATFQISMADNTTTAQMHPNRKPSQIAYDASFSNSAKGSQPLFDKSQNMYHALDPPLVEPLASSVSNNDNELKANSATKLKQAIVSEAHTFRQNNSIDFPLQNIIPQYEDSSSSSDESYSGDVDELKKTRSLGSYSTRGNIKKNQSVKESLTSSSLPGTSFTPTSTKVNLKHENSPFKSTFVNTIDNSKDDLNKPSYEDLDVSKQNLKNSIQQRMIDKLNSSEESFNARKMSKVKLHEKGEIDKPTMLKSSGPISKDKKTKPTPPPKPSHLKPKPPPKPLLLAGRKLSLDK
B2: YNL229C (protein, UniProt P23202 2-354, looked up)
Transcriptional regulator URE2: MNNNGNQVSNLSNALRQVNIGNRNSNTTTDQSNINFEFSTGVNNNNNNNSSSNNNNVQNNNSGRNGSQNNDNENNIKNTLEQHRQQQQAFSDMSHVEYSRITKFFQEQPLEGYTLFSHRSAPNGFKVAIVLSELGFHYNTIFLDFNLGEHRAPEFVSVNPNARVPALIDHGMDNLSIWESGAILLHLVNKYYKETGNPLLWSDDLADQSQINAWLFFQTSGHAPMIGQALHFRYFHSQKIASAVERYTDEVRRVYGVVEMALAERREALVMELDTENAAAYSAGTTPMSQSRFFDYPVWLVGDKLTIADLAFVPWNNVVDRIGINIKIEFPEVYKWTKHMMRRPAVIKALRGE
B3: YML035C (protein, UniProt P15274 1-810, looked up)
AMP deaminase: MDNQATQRLNDLSLEPAPSHDEQDGSGLVIDIDQRKIGDEQAGVVVDDETPPLEQQDSHESLAADSRNANFSYHENQQLLENGTKQLALDEHDSHSAILEQPSHSTNCSSSNIAAMNKGHDSADHASQNSGGKPRTLSASAQHILPETLKSFAGAPVVNKQVRTSASYKMGMLADDASQQFLDDPSSELIDLYSKVAECRNLRAKYQTISVQNDDQNPKNKPGWVVYPPPPKPSYNSDTKTVVPVTNKPDAEVFDFTKCEIPGEDPDWEFTLNDDDSYVVHRSGKTDELIAQIPTLRDYYLDLEKMISISSDGPAKSFAYRRLQYLEARWNLYYLLNEYQETSVSKRNPHRDFYNVRKVDTHVHHSACMNQKHLLRFIKHKLRHSKDEKVIFRDGKLLTLDEVFRSLHLTGYDLSIDTLDMHAHKDTFHRFDKFNLKYNPIGESRLREIFLKTNNYIKGTYLADITKQVIFDLENSKYQNCEYRISVYGRSLDEWDKLASWVIDNKVISHNVRWLVQIPRLYDIYKKTGIVQSFQDICKNLFQPLFEVTKNPQSHPKLHVFLQRVIGFDSVDDESKVDRRFHRKYPKPSLWEAPQNPPYSYYLYYLYSNVASLNQWRAKRGFNTLVLRPHCGEAGDPEHLVSAYLLAHGISHGILLRKVPFVQYLYYLDQVGIAMSPLSNNALFLTYDKNPFPRYFKRGLNVSLSTDDPLQFSYTREPLIEEYSVAAQIYKLSNVDMCELARNSVLQSGWEAQIKKHWIGKDFDKSGVEGNDVVRTNVPDIRINYRYDTLSTELELVNHFANFKRTIEEK
B4: YNL106C (protein, UniProt P50942 1-1183, looked up)
Polyphosphatidylinositol …: MKILLSKQQTRKIAIVSETHGLVFRPINSKNSRRSTCAVELVPKAELNGNGFRRLSNHEIYGFIGLIEIEGLMFIATITGKSKVAQPIPNKTVNKIYAVDFFCLNNSKWDFMDIDSSGYPIVTNDGDFAISSPPSISTHSSRSSLRSSSSRSLNAQEQAPKHPCHELRKLLSNGSFYYSTDFDLTCTLQKRGFTEHSLSFDDFDREFMWNSFLMDEIITYRDRLDVTAKELLDQRGFLTTVIRGFAETIFSYINRLKVGLTIISRQSWKRAGTRFNARGIDDDGHVANFVETEMIMYSSQYCYAFTQIRGSLPIFWEQDTSLISPKIQITRSVEATQPTFDEHFIRLFKKYGPVHIINLLSTKSSEIQLSRRYKEQLKNSEKMKIGRDVFLTSFDFHRETSQDGFAAASRIIPKIRNTILDAGYFSYDVKEGRLISEQDGVFRTNCLDCLDRTNLIQQTISLAVFKLFLEDFRLVKPSSFIDDNEFVQKVNALWADNGDQISQIYTGTNALKSSYSRKGKMSFSGALSDATKSVSRMYINNFVDKGKQQNIDTLLGKLPHQQVVELYDPICEYVNERLLESEEKFTTHSNINLFVGTFNVNGNSRRADLSKWLFPIGDKFKPDVVVLGLQEVIELTAGSILNADYTKSSFWETMVTDCLNQYEEKYLLLRVEQMSSLLILFFARSDRAYNIKEVGGSTKKTGFGGITGNKGAVAIRFDYGATSFCFVNTHLSAGASNIDERRNDYNNIYRNITFPRSKTIPHHDSLFWLGDLNYRITLTNDEVRRELRAQKDGYIDRLLQYDQLTQEINEGVVFQGFKEPTLQFRPTYKYDYGTDNYDTSEKARTPSWTDRIIYKGENLHPLAYSDAPLKISDHKPVYAAYRANVKFVDEKEKLNLVEKLYAEYKNTHPEALTTGPDELSHARMEKQKESIPLDATVQSAGIKLIDLDDTSSCVSPLLSGPSPQPSVVGPGGLSNVSPDKSKLNVLPPPPPTSRHNKEPSSKLLSPTKEISIVSVSPRKGESNLPALERHSTPKPLPPVPALSLSKPVSLQKSSSELQHAKETIDNGKIVPRPCPPIRRKSSTAPDEISTSTKNSGVSTTEDPEPAKASTKPEKPPVVKKPHYLSVAANKLNTSQEHSIKVSPSNSKSEEELPCKKKSKPKVPAKNPELEKLSVHPLKPCDPN
B5: YNL098C (protein, UniProt P01120 2-319, looked up)
Ras-like protein 2: PLNKSNIREYKLVVVGGGGVGKSALTIQLTQSHFVDEYDPTIEDSYRKQVVIDDEVSILDILDTAGQEEYSAMREQYMRNGEGFLLVYSITSKSSLDELMTYYQQILRVKDTDYVPIVVVGNKSDLENEKQVSYQDGLNMAKQMNAPFLETSAKQAINVEEAFYTLARLVRDEGGKYNKTLTENDNSKQTSQDTKGSGANSVPRNSGGHRKMSNAANGKNVNSSTTVVNARNASIESKTGLAGNQATNGKTQTDRTNIDNSTGQAGQANAQSANTVNNRVNNNSKAGQVSNAKQARKQQAAPGGNTSEASKSGSGGCC
B6: YBL007C (protein, UniProt P32790 1-1244, looked up)
Actin cytoskeleton-regulatory …: MTVFLGIYRAVYAYEPQTPEELAIQEDDLLYLLQKSDIDDWWTVKKRVIGSDSEEPVGLVPSTYIEEAPVLKKVRAIYDYEQVQNADEELTFHENDVFDVFDDKDADWLLVKSTVSNEFGFIPGNYVEPENGSTSKQEQAPAAAEAPAATPAAAPASAAVLPTNFLPPPQHNDRARMMQSKEDQAPDEDEEGPPPAMPARPTATTETTDATAAAVRSRTRLSYSDNDNDDEEDDYYYNSNSNNVGNHEYNTEYHSWNVTEIEGRKKKKAKLSIGNNKINFIPQKGTPHEWSIDKLVSYDNEKKHMFLEFVDPYRSLELHTGNTTTCEEIMNIIGEYKGASRDPGLREVEMASKSKKRGIVQYDFMAESQDELTIKSGDKVYILDDKKSKDWWMCQLVDSGKSGLVPAQFIEPVRDKKHTESTASGIIKSIKKNFTKSPSRSRSRSRSKSNANASWKDDELQNDVVGSAAGKRSRKSSLSSHKKNSSATKDFPNPKKSRLWVDRSGTFKVDAEFIGCAKGKIHLHKANGVKIAVAADKLSNEDLAYVEKITGFSLEKFKANDGSSSRGTDSRDSERERRRRLKEQEEKERDRRLKERELYELKKARELLDEERSRLQEKELPPIKPPRPTSTTSVPNTTSVPPAESSNNNNSSNKYDWFEFFLNCGVDVSNCQRYTINFDREQLTEDMMPDINNSMLRTLGLREGDIVRVMKHLDKKFGRENIASIPTNATGNMFSQPDGSLNVATSPETSLPQQLLPQTTSPAQTAPSTSAETDDAWTVKPASKSESNLLSKKSEFTGSMQDLLDLQPLEPKKAAASTPEPNLKDLEPVKTGGTTVPAAPVSSAPVSSAPAPLDPFKTGGNNILPLSTGFVMMPMITGGDMLPMQRTGGFVVPQTTFGMQSQVTGGILPVQKTGNGLIPISNTGGAMMPQTTFGAAATVLPLQKTGGGLIPIATTGGAQFPQTSFNVQGQQQLPTGSILPVQKTANGLISANTGVSMPTVQRTGGTMIPQTSFGVSQQLTGGAMMTQPQNTGSAMMPQTSFNAVPQITGGAMMPQTSFNALPQVTGGAMMPLQRTGGALNTFNTGGAMIPQTSFSSQAQNTGGFRPQSQFGLTLQKTGGIAPLNQNQFTGGAMNTLSTGGVLQQQQPQTMNTFNTGGVMQELQMMTTFNTGGAMQQPQMMNTFNTDGIMQQPQMMNTFNTGGAMQQPQQQALQNQPTGFGFGNGPQQSRQANIFNATASNPFGF
B7: YMR216C (protein, UniProt Q03656 1-742, looked up)
Serine/threonine-protein …: MGSSINYPGFVTKSAHLADTSTDASISCEEATSSQEAKKNFFQRDYNMMKKAPAPTKSKLSLALQTSKSSSSANGTVQEDTSSKTEDFSTKSIKKKPDSGVESHVSIQSDSGPQSDSDLDSDSSISSCDERNEESLKDYRPGGYHPAFKGEPYKDARYILVRKLGWGHFSTVWLAKDMVNNTHVAMKIVRGDKVYTEAAEDEIKLLQRVNDADNTKEDSMGANHILKLLDHFNHKGPNGVHVVMVFEVLGENLLALIKKYEHRGIPLIYVKQISKQLLLGLDYMHRRCGIIHTDIKPENVLMEIGDVEGIVQMVEALDKQKREAKRLQRHVSRSSDITANDSSDEKWAECQTSMPCGSSSNSKSRSIEKDLSKRCFRRPRRHTIITGSQPLPSPISSSNFFEMRAHFCGSSHNSFSSVSGNRNIPSSINNNSINNGIGIKNSNNSFLNSVPHSVTRMFINEDSNDNNNNDNSKNKNNNNNNSNNNNNEDIMNTPLHEEQLADSLSTFDISNISQSSDTNGPYISNTMDSNSNVSTDINSPENLIQIKIADLGNACWYDEHYTNSIQTREYRSPEVLLGAPWGCGADIWSTACLIFELITGDFLFEPDEGHSYTKDDDHIAQIIELLGELPSYLLRNGKYTRTFFNSRGLLRNISKLKFWPLEDVLTEKYKFSKDEAKEISDFLSPMLQLDPRKRADAGGLVNHPWLKDTLGMEEIRVPDRELYGSGSDIPGWFEEVRDHKRH
B8: YNL084C (protein, UniProt P39013 1-349, looked up)
Actin cytoskeleton-regulatory …: MPKLEQFEIKKYWQIFSGLKPIENKVNHDQVLPILYNSKLDSSVLNKIWFLADIDDDDNLDFEEFVICMRLIFDMVNKNISSVPDELPDWLIPGSKVNLIKERKKRKQIENADLPPKKEIKVDWYMSPDDLNQYEKIYNSCAKLTDGTITFNELSTKLSTKFFNISKTDLNKVWSLINPQNLPSIDRDPTFYFIHCLRQRNDLGAEIPASLPNSLAEVCNKKQLSYDLRSSQPPTKRKEEANEVDNLRDNGQNSSSDSSGSNVLSNEDSIKQKYASLTDDQVANMREQLEGLLNYKKSEKTQGGSKLSKRINIRSITDDLDNIEQQVEVLENYLNNKRHELQALQAEIN

The molecules below were run on ABP1 (assay: DHFR-PCA on solid medium, bait ABP1 (Fig. 1B)). Details: bait ABP1, label = prey.
Format: cell-based, Saccharomyces cerevisiae
Set-up: key: 0: SH3-independent; 1: SH3-dependent PPIs; 2: SH3-inhibited PPIs
Text: Supplement 41467_2021_21873_MOESM8_ESM.xlsx, sheet "Fig1B" | column: medsize; medrep; Ratio; Score

Question: B1 was tested. Which Score did it give?
Answer: 0

Question: B2 was tested. Which Score did it give?
Answer: 0

Question: Which Score does the source give for B3 here?
Answer: 0

Question: Which Score does the source give for B4 here?
Answer: 0

Question: B5 was tested. Which Score did it give?
Answer: 0

Question: B6 was tested. Which Score did it give?
Answer: 0

Question: B7 was tested. Which Score did it give?
Answer: 0

Question: Which Score does the source give for B8 here?
Answer: 0
